Anti-infective test results gathered from many reports (values: NIAID ChemDB through PubChem).

All rows: tests in culture; organism: Human cytomegalovirus

Percent inhibition refers to the dose given; in toxicity tests it is the harm to the cells. ECn: concentration that inhibits the pathogen or its effect by n%. An empty or dashed field is not shown. Neighbouring rows are from separate reports.

SMILES | strain | cells | read by | endpoint | dose | value
Nc1nc2c(ncn2[C@@H]2C[C@H](CO)[C@H]2CO)c(=O)[nH]1 | PC92 (ganciclovir- foscarnet-susceptible) | MRC-5 | plaque count | EC75 |  | 6.39 µM
O=c1[nH]c(=O)n([C@H]2C[C@H](O)[C@@H](CO)O2)cc1/C=C/Br |  | HEL | plaque count | inhibition | 20 µM | 29.3%
Cn1cc(C(=O)NCc2ccc(Cl)cc2)c(=O)c2cc(CN3CCOCC3)ccc21 | HA | HFF | plaque count | inhibition | 10.5 µM | 90%
O=C(NCc1ccc(Cl)cc1)c1c[nH]c2ccc(C#CCO)cc2c1=O | ADI |  | plaque count | EC50 |  | 1.4 µM
Nc1ccn(C[C@@H](CO)OCP(=O)(O)O)c(=O)n1.O=C(O)P(=O)(O)O | PAAR | MRC-5 | plaque count | EC75 |  | 1.11 µM
O=C(NCc1ccc(Cl)cc1)c1c[nH]c2c(F)cc(CCCO)cc2c1=O | AD169 |  | plaque count | EC90 |  | 3.5 µM
Nc1ccn(C[C@H]2COP(=O)(O)CO2)c(=O)n1.O=C(O)P(=O)(O)O | PC92 (ganciclovir- foscarnet-susceptible) | MRC-5 | plaque count | EC75 |  | 1.06 µM
Nc1ncnc2c1ncn2C=C1CC1CO | VR4760 (ganciclovir-resistant) |  | plaque count | EC90 |  | 6.9 µM
Nc1nc2c(ncn2COCCO)c(=O)[nH]1 |  | HEL | plaque count | inhibition | 10 µM | 23.8%
Nc1ccn(C[C@@H](CO)OCP(=O)(O)O)c(=O)n1 | PC92 (ganciclovir- foscarnet-susceptible) | MRC-5 | plaque count | EC75 |  | 0.61 µM
COc1cccc(N2CCN(C3=Nc4c(F)cccc4[C@H](CC(=O)O)N3c3cc(C(F)(F)F)ccc3OC)CC2)c1 | Clinical isolate 2 |  | plaque count | EC50 |  | 0.0015 µM
Nc1nc2c(ncn2COC(CO)CO)c(=O)[nH]1 | C8912 | MRC-5 | hybridisation | EC50 |  | 0.5 µM
O=C(NCc1ccc(Cl)cc1)c1c[nH]c2c(F)cccc2c1=O | GDGrP53 |  | plaque count | EC90 |  | 26 µM
Cc1ccc2ncnc(Nc3ccc(Cl)c(Cl)c3)c2c1 | AD169-GFP | HFF | plaque count | inhibition | 10 µM | 100%
OC[C@H]1O[C@@H](n2c(Cl)nc3cc(Cl)c(Cl)cc32)[C@H](O)[C@@H]1O | D10 (D341E) |  | virus yield | EC95 |  | 7.9 µM
CC(C)Nc1nc2cc(Cl)c(Cl)cc2n1[C@H]1O[C@@H](CO)[C@H](O)[C@@H]1O | C9207 | MRC-5 | hybridisation | EC50 |  | 0.03 µM

For reference, 2 entries again:

SMILES	strain	cells	read by	endpoint	dose	value
Nc1ncnc2c1ncn2C=C1CC1CO	VR4760 (ganciclovir-resistant)		plaque count	EC90		6.9 µM
O=c1[nH]c(=O)n([C@H]2C[C@H](O)[C@@H](CO)O2)cc1/C=C/Br		HEL	plaque count	inhibition	20 µM	29.3%